Compound potency records, mixed from different reports. Data source: NIAID ChemDB in PubChem.

Shared fields: tests in culture; agent: HIV-1

ECn is the concentration giving n% inhibition of infection, replication or growth. Rows are shuffled and stem from different studies. Blank or dashed fields: not listed here.

structure | read by | cell line | mutations | endpoint | strain | value
COc1ccc(S(=O)(=O)N(CC[C@@H](O)CN(CC(C)C)S(=O)(=O)c2ccc(OC)cc2)CC2CCCC2)cc1 | p24 | CEM |  | EC90 | IIIB | 1 µM
Cc1c(O)cccc1C(=O)N[C@@H](Cc1ccccc1)C(O)CN1C[C@H]2CCS[C@H]2C[C@H]1C(=O)NC(C)(C)C | cytopathic effect / XTT | CEM + CEM-SS |  | EC50 | HXB2 | 0.024 µM
CCOCCOc1ccc(-c2cnc(C)c([C@H](OC(C)(C)C)C(=O)O)c2N2CCC(C)(C)CC2)nc1 | luminescence | MT-2 |  | EC50 | NL4-3 | 0.0033 µM
COc1cc(C[C@@H]2C(=O)N[C@@H](C(C)C)C(=O)O[C@H](c3ccccc3)[C@H](C)/C=C/C=C(\C)C(OC)CCC/C=C(\C)C(=O)C(C)C(=O)N2C)ccc1O |  | TZM-bl |  | EC50 | LAI | 0.015 µM
C#Cc1ccc(Nc2nccc(Oc3c(C)cc(-c4cn(CCc5cccs5)nn4)cc3C)n2)cc1 | MTT | MT-4 |  | EC50 | RES056 | >5.53 µM
CC1=C2C[C@]3(O)[C@@H](C)CCC[C@@]3(C)C[C@@H]2OC1=O | MTT | MT-4 |  | EC50 | IIIB | 0.002 µg/mL
Cc1nnc(C(=O)NC(C)(C)c2nc(C(=O)NCc3ccc(F)cc3)c(O)c(=O)n2C)o1 | luciferase / luminescence | TZM-bl |  | EC50 | NL4-3 | 0.00756 µM
Cc1cc2ccc3c(c2oc1=O)[C@@H](OC(=O)C12CCC(C)(C(=O)O1)C2(C)C)[C@@H](OC(=O)C12CCC(C)(C(=O)O1)C2(C)C)C(C)(C)O3 | p24 | H9 |  | EC50 | IIIB | 0.02731 µM
CC1(C)C=C2C3CCC4[C@@]5(C)CCC(=O)C(C)(C)C5[C@H](O)C[C@@]4(C)[C@]3(C)CC[C@@]2(C(=O)O)CC1 | syncytia | C8166 |  | EC50 | IIIB | 13.11 µM
C=CCCc1cccc(Cc2[nH]c(=O)[nH]c(=O)c2CC)c1 | cytopathic effect / MTT | MT-4 |  | EC50 | RT-K103N Y181C Mutant NNRTI-resistant | >66 µM
C[C@H]1CO[C@@H]2CN3C=C(C(=O)NCc4ccncc4F)C(=O)C(=O)C3C(=O)N12 | XTT | CEM-SS |  | EC50 | IIIB | >0.01 µM
COc1ccccc1C#CC1(C(F)(F)F)OC(=O)Nc2ccc(Cl)cc21 | p24 | MT-4 |  | EC50 | IIIB | <0.006 µM
CCc1c(Cc2ccccc2)nc(SCC(=O)c2ccccc2)[nH]c1=O | syncytia | C8166 |  | EC50 | IIIB | 0.08 µM
C=CCCc1cccc(Cc2[nH]c(=S)[nH]c(=O)c2CC)c1 | cytopathic effect / MTT | MT-4 |  | EC50 | RT-Y181C Mutant NNRTI-resistant | >80 µM
O=C1NCC(CCC2(C(F)(F)F)OC(=O)Nc3ccc(Cl)cc32)O1 | p24 | MT-4 |  | EC95 | IIIB | 78 µM
CCOCn1c(Cc2cccc(OCC3CO3)c2)c(CC)c(=O)[nH]c1=O | cytopathic effect / MTT | MT-4 |  | EC50 | RT-K103N Y181C Mutant NNRTI-resistant | >80 µM
C=C(C)[C@@H]1CC[C@]2(C(=O)O)CC[C@]3(C)[C@H](CC[C@@H]4[C@@]5(C)CCC(=O)C(C)(C)[C@@H]5CC[C@]43C)[C@@H]12 | syncytia | C8166 |  | EC50 | IIIB | 5.81 µM
CC1(C)[C@@H](CCO)C[C@H]1n1nnc2c(=O)[nH]c(N)nc21 | cytopathic effect | MT-4 |  | EC50 |  | >250 µg/mL
COc1ccc(S(=O)(=O)N(CC[C@H](O)CN2CSC[C@@H]2C(=O)NC(C)(C)C)CC(C)C)cc1 | p24 | CEM |  | EC50 | IIIB | <1 µM
CCc1c(Cc2cccc3ccccc23)nc(Sc2cccs2)[nH]c1=O | syncytia | C8166 |  | EC50 | IIIB | 14.1 µM
CCC1(c2ccccc2)OC(=S)Nc2ccc(Cl)cc21 | p24 | MT-4 |  | EC50 | IIIB | <0.1 µM
Nc1nc(N)c2ncn([C@H]3CC[C@@H](CO)O3)c2n1 | cytopathic effect / trypan blue | MT-4 |  | EC50 | IIIB Laboratory strain | 3.6 µM
Nc1nc(=O)n([C@H]2O[C@@H](CO)[C@@H](O)[C@@H]2O)cc1F | cytopathic effect / MTT | CEM + CEM-SS |  | EC50 | LAI | >100 µM
Cc1cn([C@H]2C[C@H](N=[N+]=[N-])[C@@H](CO)O2)c(=O)[nH]c1=O | syncytia | C8166 |  | EC50 | IIIB | 0.0108 µM
CC1(C)[C@@H](CCO)C[C@H]1n1nnc2c(N)nc(N)nc21 | cytopathic effect | CEM |  | EC50 |  | >20 µg/mL
O=C1Nc2ccc(Cl)cc2[C@@](C#CC2CC2)(C(F)(F)F)N1 |  |  | RT-P225H | EC90 |  | <0.012 µM
C[C@H]1CO[C@@H]2CN3C=C(C(=O)NCc4ccc(Cl)nc4)C(=O)C(=O)C3C(=O)N12 | XTT | CEM-SS |  | EC50 | IIIB | 0.0277 µM
Cc1c(CC#N)c(=O)oc2c3c(ccc12)OC(C)(C)[C@H](OC(=O)C12CCC(C)(C(=O)O1)C2(C)C)[C@@H]3OC(=O)C12CCC(C)(C(=O)O1)C2(C)C | p24 | H9 |  | EC50 | IIIB | 0.0024 µM
COc1ccc(C(=O)CSc2nc(Cc3ccccc3)c(C(C)C)c(=O)[nH]2)cc1 | syncytia | C8166 |  | EC50 | IIIB | 0.144 µM
C[C@H]1CO[C@@H]2CN3C=C(C(=O)NCc4nc5ccccc5n4C)C(=O)C(=O)C3C(=O)N12 | XTT | CEM-SS |  | EC50 | IIIB | 0.0284 µM
Cc1cc(S(=O)(=O)Nc2nnc3c4ccccc4cnn23)c(S)cc1Cl | cytopathic effect / XTT | CEM |  | EC50 | RF | 3.6 µM
CC(C)c1c(Cc2cccc3ccccc23)nc(SCC(=O)c2ccccc2)[nH]c1=O | syncytia | C8166 |  | EC50 | IIIB | 0.28 µM
CC1(C)[C@@H](CCO)C[C@H]1n1cnc2c(N)nc(N)nc21 | cytopathic effect | MT-4 |  | EC50 |  | >250 µg/mL
Cc1ncc(-c2ccc(OCCOC3CCC3)cn2)c(N2CCC(C)(C)CC2)c1[C@H](OC(C)(C)C)C(=O)O | luminescence | MT-2 |  | EC50 | NL4-3 | 0.0012 µM
Nc1nc(=O)n([C@@H]2C[C@@H](O)[C@H](CO)O2)cc1F | cytopathic effect / MTT | MT-4 |  | EC50 | IIIB | >100 µM
Nc1ccc(S(=O)(=O)N(CC[C@H](O)CN(CC2CCCC2)S(=O)(=O)c2ccc(N)cc2)CC2CCCC2)cc1 | p24 | CEM |  | EC90 | IIIB | 1 µM
C=CCOc1cccc(Cc2nc(SC)[nH]c(=O)c2CC)c1 | cytopathic effect / MTT | MT-4 |  | EC50 | RT-Y181C Mutant NNRTI-resistant | >80 µM
O=S(=O)(c1ccccc1)N(CCc1ccccc1)CC(O)CN(CC1CCCC1)S(=O)(=O)c1ccccc1 | p24 | CEM |  | EC90 | IIIB | 1 µM
Cc1cccc(Cl)c1OCCOc1ccc(-c2cnc(C)c([C@H](OC(C)(C)C)C(=O)O)c2N2CCC(C)(C)CC2)cn1 | luminescence | MT-2 |  | EC50 | NL4-3 | 0.005 µM
C[C@@H]1CO[C@@]23CCC[C@@H]2N2C=C(C(=O)NCc4ccc(F)nc4F)C(=O)C(=O)C2C(=O)N13 | XTT | CEM-SS |  | EC50 | IIIB | 0.0578 µM
Cc1ncc(-c2ccc(OCCc3ccn(C)n3)cn2)c(N2CCC(C)(C)CC2)c1[C@H](OC(C)(C)C)C(=O)O | luminescence | MT-2 |  | EC50 | NL4-3 | 0.0096 µM
CCOCn1c(Cc2ccccc2)c(C(C)C)c(=O)[nH]c1=O | p24 | PBMC |  | EC50 | CC4 | 0.0022 µM
CN1N=C(N)c2cn([C@@H]3O[C@H](COP(=O)(O)O)[C@@H](O)[C@H]3O)c3ncnc1c23 | XTT |  |  | EC50 | RF | 0.01 µg/mL
C[C@@H]1CCO[C@H]2CN3C=C(C(=O)NCc4c(F)cc(F)nc4F)C(=O)C(=O)C3C(=O)N12 | XTT | CEM-SS |  | EC50 | IIIB | 0.145 µM
Cc1ncc(-c2ccc(N(C)CCOc3c(F)cccc3Cl)cn2)c(N2CCC(C)(C)CC2)c1[C@H](OC(C)(C)C)C(=O)O | luminescence | MT-2 |  | EC50 | NL4-3 | 0.002 µM
C[C@H]1CO[C@@H]2CN3C=C(C(=O)NCc4cn5ncsc5n4)C(=O)C(=O)C3C(=O)N12 | XTT | CEM-SS |  | EC50 | IIIB | 0.0336 µM
CCOCCCCOc1ccc(-c2cnc(C)c([C@H](OC(C)(C)C)C(=O)O)c2N2CCC(C)(C)CC2)nc1 | luminescence | MT-2 |  | EC50 | NL4-3 | 0.0007 µM
CC1(C)[C@@H](CCO)C[C@H]1n1cnc2c(=O)[nH]c(N)nc21 | cytopathic effect | CEM |  | EC50 |  | >100 µg/mL
C=C(C)[C@@H]1CC[C@]2(CO)CC[C@]3(C)[C@H](CC[C@@H]4[C@@]5(C)CC[C@H](O)C(C)(C)[C@@H]5CC[C@]43C)[C@@H]12 | syncytia | C8166 |  | EC50 | IIIB | 232 µM
COc1ccc(S(=O)(=O)N(CC(C)C)C[C@@H](O)CCN(CC2CCCC2)S(=O)(=O)CC2NC(=O)NC2=O)cc1 | p24 | CEM |  | EC50 | IIIB | <1 µM
C[C@H]1CO[C@@H]2CN3C=C(C(=O)NCc4cnc5ccccn45)C(=O)C(=O)C3C(=O)N12 | XTT | CEM-SS |  | EC50 | IIIB | 0.0294 µM
Cc1cn([C@H]2C[C@H](N=[N+]=[N-])[C@@H](CO)O2)c(=O)[nH]c1=O | cytopathic effect / XTT | MT-4 |  | EC50 | IIIB | 0.0055 µM
Cc1cc(S(=O)(=O)Nc2nnc3c4ccccc4ccn23)c(S)cc1Cl | cytopathic effect / XTT | CEM |  | EC50 | RF | 166 µM
COc1ccc(S(=O)(=O)N(CC(C)C)CC(O)CN(CC(C)C)S(=O)(=O)c2ccccc2)cc1 | p24 | CEM |  | EC50 | IIIB | <1 µM
C#Cc1ccc(Nc2nccc(Oc3c(C)cc(-c4cn(Cc5ccc(C(=O)OC)cc5)nn4)cc3C)n2)cc1 | MTT | MT-4 | K103N | EC50 | IIIB | 0.35 µM
CCCC1(C2CC2)OC(=O)Nc2ccc(Cl)cc21 | p24 | MT-4 |  | EC50 | IIIB | <1.5 µM
C=CCOc1cccc(Cc2nc(N(C)C)[nH]c(=O)c2CC)c1 | cytopathic effect / MTT | MT-4 |  | EC50 | IIIB | >20 µM
Nc1nc(=O)n([C@H]2O[C@@H](CO)[C@H](O)[C@@H]2O)cc1F | cytopathic effect / MTT | CEM + CEM-SS |  | EC50 | LAI | >100 µM
Cc1nonc1CNC(=O)C1=CN2C[C@H]3OC[C@H](C)N3C(=O)C2C(=O)C1=O | XTT | CEM-SS |  | EC50 | IIIB | 0.036 µM
O=C1Nc2ccc(Cl)cc2[C@@](C#Cc2ccccc2)(C(F)(F)F)O1 | p24 | MT-4 |  | EC50 | IIIB | <0.012 µM
C=CCOc1cccc(Cc2[nH]c(=O)c(CC)c(O)c2CC)c1 | cytopathic effect / MTT | MT-4 |  | EC50 | RT-Y181C Mutant NNRTI-resistant | >20 µM
COc1cc2c(c3oc(=O)c(CBr)c(C)c13)[C@@H](OC(=O)C13CCC(C)(C(=O)O1)C3(C)C)[C@@H](OC(=O)C13CCC(C)(C(=O)O1)C3(C)C)C(C)(C)O2 | cytopathic effect / XTT | MT-4 |  | EC50 | IIIB | 0.24 µM
Cc1ccnc(C)c1C(=O)N1CCC(C)(N2CCN([C@@H](C)c3ccc(C(F)(F)F)cc3)[C@@H](C)C2)CC1 | luciferase / entry | U87 (CD4+ CCR5+) + U87 |  | EC50 | JR-FL | 0.0015 µM
CCOCn1c(Cc2cccc(CCC3CO3)c2)c(CC)c(=O)[nH]c1=O | cytopathic effect / MTT | MT-4 |  | EC50 | RT-K103N Y181C Mutant NNRTI-resistant | 80 µM
O=C1Nc2ccc(F)c(F)c2[C@@](/C=C/C2CC2)(C(F)(F)F)N1 |  |  | RT-L100I | EC90 |  | 0.007 µM
C=CCCc1cccc(Cc2c(CC)c(=O)[nH]c(=O)n2COCC=C)c1 | cytopathic effect / MTT | MT-4 |  | EC50 | RT-Y181C Mutant NNRTI-resistant | 1 µM
Nc1ncnc2c1ncn2[C@H]1C=C[C@@H](CO)O1 | cytopathic effect / trypan blue | MT-4 |  | EC50 | IIIB Laboratory strain | >5 µM

The last 5 rows once more:

| structure | read by | cell line | mutations | endpoint | strain | value |
|---|---|---|---|---|---|---|
| Cc1ccnc(C)c1C(=O)N1CCC(C)(N2CCN([C@@H](C)c3ccc(C(F)(F)F)cc3)[C@@H](C)C2)CC1 | luciferase / entry | U87 (CD4+ CCR5+) + U87 |  | EC50 | JR-FL | 0.0015 µM |
| CCOCn1c(Cc2cccc(CCC3CO3)c2)c(CC)c(=O)[nH]c1=O | cytopathic effect / MTT | MT-4 |  | EC50 | RT-K103N Y181C Mutant NNRTI-resistant | 80 µM |
| O=C1Nc2ccc(F)c(F)c2[C@@](/C=C/C2CC2)(C(F)(F)F)N1 |  |  | RT-L100I | EC90 |  | 0.007 µM |
| C=CCCc1cccc(Cc2c(CC)c(=O)[nH]c(=O)n2COCC=C)c1 | cytopathic effect / MTT | MT-4 |  | EC50 | RT-Y181C Mutant NNRTI-resistant | 1 µM |
| Nc1ncnc2c1ncn2[C@H]1C=C[C@@H](CO)O1 | cytopathic effect / trypan blue | MT-4 |  | EC50 | IIIB Laboratory strain | >5 µM |